Anti-infective test results gathered from many reports (values: NIAID ChemDB through PubChem).

All rows: tests in culture; agent: HIV-1; endpoint: EC50

Conditions beyond the fields shown may differ between rows.

structure	strain or isolate	mutations	cell line	read by	value
Cc1ncc(-c2ccc(OC[C@@H](C)Oc3ccccc3)cn2)c(N2CCC(C)(C)CC2)c1[C@H](OC(C)(C)C)C(=O)O	NL4-3	-	MT-2	luminescence	0.0019 µM
Cc1cc2[nH]cnc2cc1NC(=O)COc1ccc(Cl)cc1C(=O)c1cc(F)cc(C(F)(F)F)c1	HXB2 (RT-K103N G190A) Recombinant	RT-K103N G190A	HeLa + HELA CD4+	β-galactosidase	0.011–0.1 µM
Cc1ncc(-c2cnc(OCC3CCC(C)CC3)c(F)c2)c(N2CCC(C)(C)CC2)c1[C@H](OC(C)(C)C)C(=O)O	NL4-3	-	MT-2	luminescence	0.0174 µM
Cc1cc(C#N)cc(C(=O)c2cc(Cl)ccc2OCC(=O)Nc2ccc(S(N)(=O)=O)nc2C)c1	HXB2	RT-P225H	HeLa + HELA CD4+	β-galactosidase	<0.01 µM
CC1CC(C)CN(S(=O)(=O)c2ccccc2[N+](=O)[O-])C1	O-MVP5180	-	HeLa	GFP / fluorescence	0.37 µM
CCC[C@@]1(CCc2ccccc2)CC(O)=C([C@H](CC)c2cccc(NS(=O)(=O)c3ccc(C(F)(F)F)cn3)c2)C(=O)O1	T13572	V32I L76V V82I	MT-4	reporter gene	240 nM
Cc1ccc(OCCOc2ccc(-c3cnc(C)c([C@H](OC(C)(C)C)C(=O)O)c3N3CCC(C)(C)CC3)nc2)cc1F	NL4-3	-	MT-2	luminescence	0.0012 µM
Cc1nnc(C(=O)N(CCN(C)C)CC[C@@]23CC[C@]4(C)[C@H](CC[C@@H]5[C@@]6(C)CC[C@H](OC(=O)[C@H]7C[C@@H](C(=O)O)C7(C)C)C(C)(C)[C@@H]6CC[C@]54C)C2=C(C(C)C)C(=O)C3)o1	92HT599	-	MT-2	p24 / ELISA	<1 µM
Cc1ncc(-c2ccc(OC3CCC3)cn2)c(N2CCC(C)(C)CC2)c1[C@H](OC(C)(C)C)C(=O)O	NL4-3	-	MT-2	luminescence	0.0032 µM
CC(C)C1=C2[C@H]3CC[C@@H]4[C@@]5(C)CC[C@H](OC(=O)[C@H]6C[C@@H](C(=O)O)C6(C)C)C(C)(C)[C@@H]5CC[C@@]4(C)[C@]3(C)CC[C@@]2(CCN(CCN(C)C)C(=O)c2cncnc2)CC1=O	92HT599	-	MT-2	p24 / ELISA	<1 µM
Cc1ncc(-c2ccc(OC(C)COCc3ccccc3)cn2)c(N2CCC(C)(C)CC2)c1[C@H](OC(C)(C)C)C(=O)O	NL4-3	-	MT-2	luminescence	0.0015 µM
CCC(=O)c1ccc(F)c([C@@H]2C[C@@H]2NC(=O)Nc2ccc(C#N)cn2)c1O	LAI	NNRTI-resistant (RT F227C)	TZM-bl	β-galactosidase / luminescence	0.01001 µM
CC1(C)CC=C(c2cn(-c3nccc(C(=O)NC4CCC(N5CC6CCC(C5)O6)CC4)n3)c3ccc(F)c([C@H](OC(C)(C)C)C(=O)O)c23)CC1	NL4-3	K173R	MT-4	luminescence	0.006 µM
Cc1cc(S(N)(=O)=O)ccc1NC(=O)COc1ccc(Cl)cc1C(=O)c1cccc(C#N)c1	HXB2	RT-V106I Y181C	HeLa + HELA CD4+	β-galactosidase	0.011–0.1 µM
CC(C)C1=C2[C@H]3CC[C@@H]4[C@@]5(C)CC[C@H](OC(=O)[C@H]6C[C@@H](C(=O)O)C6(C)C)C(C)(C)[C@@H]5CC[C@@]4(C)[C@]3(C)CC[C@@]2(CC(=O)NCC(C)(C)NC(=O)c2nccn2C)CC1=O	92HT599	-	MT-2	p24 / ELISA	<1 µM
C=C(C)CCOc1ncc(-c2cnc(C)c([C@H](OC(C)(C)C)C(=O)O)c2N2CCC(C)(C)CC2)cc1F	NL4-3	-	MT-2	luminescence	0.0025 µM
Cc1nc2ccccc2c(-c2cc(F)c3c(c2C)CCCO3)c1[C@H](OC(C)(C)C)C(=O)O	NL4-3	Q148R	MT-4	luminescence	0.017 µM
CC(C)C1=C2[C@H]3CC[C@@H]4[C@@]5(C)CC[C@H](OC(=O)[C@H]6C[C@@H](C(=O)O)C6(C)C)C(C)(C)[C@@H]5CC[C@@]4(C)[C@]3(C)CC[C@@]2([C@@H](O)CNC(=O)c2ccc(Cl)cc2OCCN2CCOCC2)CC1=O	92HT599	-	MT-2	p24 / ELISA	<1 µM
N#CC1=CC2Nc3ccccc3C2N(c2ccc([N+](=O)[O-])cc2)C1=O	B-92US026	-	PBMC	GFP / fluorescence	0.29 µM
Cc1cc(C#N)cc(C(=O)c2cc(Cl)ccc2OCC(=O)Nc2cnc(S(N)(=O)=O)cc2C)c1	HXB2	RT-V106A Y181C	HeLa + HELA CD4+	β-galactosidase	<0.01 µM
Cc1ncc(-c2ccc(OCC3CC(C)C3)nc2)c(N2CCC(C)(C)CC2)c1[C@H](OC(C)(C)C)C(=O)O	NL4-3	-	MT-2	luminescence	0.0046 µM
CC(C)C1=C2[C@H]3CC[C@@H]4[C@@]5(C)CC[C@H](OC(=O)[C@H]6C[C@@H](C(=O)O)C6(C)C)C(C)(C)[C@@H]5CC[C@@]4(C)[C@]3(C)CC[C@@]2(CC(=O)NCC(C)(CCCCN)NC(=O)c2ccc(Cl)cc2)CC1=O	92HT599	-	MT-2	p24 / ELISA	<1 µM
Cc1cc(S(N)(=O)=O)ccc1NC(=O)COc1ccc(Cl)cc1C(=O)c1cccc(C#N)n1	HXB2	RT-V106I Y181C	HeLa + HELA CD4+	β-galactosidase	<0.01 µM
CC(C)C1=C2[C@H]3CC[C@@H]4[C@@]5(C)CC[C@H](OC(=O)[C@H]6C[C@@H](C(=O)O)C6(C)C)C(C)(C)[C@@H]5CC[C@@]4(C)[C@]3(C)CC[C@@]2(CC(=O)NCc2ccccc2Cl)CC1=O	92HT599	-	MT-2	p24 / ELISA	<1 µM
Cc1cc(C)cc(C(=O)c2cc(Cl)ccc2OCC(=O)Nc2ccc(S(N)(=O)=O)cc2C)c1	HXB2	RT-V106I Y181C	HeLa + HELA CD4+	β-galactosidase	<0.01 µM

3 of the rows above, restated:

| structure | strain or isolate | mutations | cell line | read by | value |
|---|---|---|---|---|---|
| Cc1ncc(-c2ccc(OC3CCC3)cn2)c(N2CCC(C)(C)CC2)c1[C@H](OC(C)(C)C)C(=O)O | NL4-3 | - | MT-2 | luminescence | 0.0032 µM |
| CC(C)C1=C2[C@H]3CC[C@@H]4[C@@]5(C)CC[C@H](OC(=O)[C@H]6C[C@@H](C(=O)O)C6(C)C)C(C)(C)[C@@H]5CC[C@@]4(C)[C@]3(C)CC[C@@]2(CC(=O)NCc2ccccc2Cl)CC1=O | 92HT599 | - | MT-2 | p24 / ELISA | <1 µM |
| CC(C)C1=C2[C@H]3CC[C@@H]4[C@@]5(C)CC[C@H](OC(=O)[C@H]6C[C@@H](C(=O)O)C6(C)C)C(C)(C)[C@@H]5CC[C@@]4(C)[C@]3(C)CC[C@@]2([C@@H](O)CNC(=O)c2ccc(Cl)cc2OCCN2CCOCC2)CC1=O | 92HT599 | - | MT-2 | p24 / ELISA | <1 µM |

a–b is a range or a potency band. Blank or dashed fields: not listed here. ECn is the concentration giving n% inhibition of infection, replication or growth.